A mixed list of measured activities; the numbers were collected in NIAID ChemDB.

All rows: whole-cell or culture tests; species: HIV-1; endpoint: EC50

Rows are shuffled and stem from different studies. An empty or dashed field is not shown. a–b is a range or a potency band. ECn: concentration that inhibits the pathogen or its effect by n%.

| SMILES | changes | strain | cells | value |
|---|---|---|---|---|
| Nc1ccn([C@@H]2CC[C@H](CO)O2)c(=O)n1 | - | - | CEM | 5 µM |
| C[C@@H]1O[C@@H](Oc2c(-c3ccc(O)c(O)c3)oc3cc(O)cc(O)c3c2=O)[C@H](O)[C@H](O)[C@H]1O | - | - | C8166 | 50 µg/mL |
| CNc1cccc(CN2C(=O)N(Cc3cccc(NC)c3)[C@H](Cc3ccc4c(c3)CCO4)[C@H](O)[C@@H](O)[C@H]2Cc2ccc3c(c2)CCO3)c1 | - | RF | MT-2 | <0.0616 µM |
| Cc1cn(COC(CN)CO[Si](C)(C)C(C)(C)C(C)C)c(=O)[nH]c1=O | - | - | CEM | 0.05–100 µM |
| CC1(C)C=Cc2c(ccc3cc(C(=O)c4ccncc4)c(=O)oc23)O1 | - | IIIB | PBMC | <0.1 µM |
| Cc1cn([C@H]2C[C@H](N=[N+]=[N-])[C@@H](CO)O2)c(=O)n(N)c1=O | - | NL4-3 | - | 0.11 µM |
| CC(C)(C)C(=O)SCCOP(=O)(CO[C@@H]1C=C[C@H](n2cnc3c(N)ncnc32)C12CC2)OCCSC(=O)C(C)(C)C | - | WILD TYPE | - | 12.3 µM |
| O=C1CC(O)(Cc2ccccc2)C(O)C(O)(Cc2ccccc2)C1 | - | IIIB | MOLT-4 | <100 µM |
| Nc1cccc(CN2C(=O)N(Cc3cccc(N)c3)[C@H](Cc3ccc4c(c3)OCCO4)[C@H](O)[C@@H](O)[C@H]2Cc2ccc3c(c2)OCCO3)c1 | - | RF | MT-2 | <0.04 µM |
| Cc1nc2cc(Nc3ccccc3C(=O)O)ccc2s1 | - | LAV | PBMC | >26.04 µM |
| Nc1nc2c(ncn2[C@H]2C=C[C@@H](OCCO)C2)c(=O)[nH]1 | - | - | - | 14 µg/mL |
| O=C(O)CSc1ccc2[nH]c3ccccc3c(=O)c2c1 | - | LAV | PBMC | >100 µM |
| CCc1c(O)cccc1C(=O)N[C@@H](Cc1ccccc1)[C@H](O)C(=O)N1CSC[C@H]1C(=O)NC(C)(C)C | - | IIIB | MT-4 | 1.46 µM |
| COC(=O)N[C@H](C(=O)N[C@@H](Cc1ccccc1)[C@@H](O)CN(Cc1ccc(-c2ccccn2)cc1)NC(=O)[C@@H](NC(=O)OC)C(C)(C)C)C(C)(C)C | - | LAI | MT-2 | 0.005 µM |
| Cc1cn(C2CC(N=[N+]=[N-])C(CO)O2)c(=O)n(/C=C/C(=O)/C=C(\O)C2=NN=[N+](Cc3ccc(F)cc3)C2)c1=O | - | NL4-3 | - | 0.16 µM |
| Nc1ccn([C@H]2O[C@@H](CO)C[C@H]2F)c(=O)n1 | - | - | PBM | 16.4 µM |
| Cc1cn(Cc2nc(C)n(C)n2)c(=O)[nH]c1=O | - | IIIB | MT-4 | >82 µg/mL |
| CC(C)OP(=O)(COCC1(Cn2ccc(N)nc2=O)CC=CC1)OC(C)C | - | - | MT-4 | 20.5 µg/mL |
| Nc1nc(NC2CC2)c2ncn([C@H]3C=C[C@@H](CO)C3)c2n1 | RT-D67N K70R T215Y | HXB2D (RT D67N K70R T215Y) | MT-2 | 0.0007 µM |
| C[C@@H](Cn1cnc2c(N)nc(N)nc21)OCP(=O)(O)O | - | IIIB | MT-4 | 7.4 µM |
| Oc1cc(O)c2c(c1)O[C@H](c1ccc(O)c(O)c1)[C@H](O)C2 | - | - | C8166 | 2 µg/mL |
| Cc1ccnc2c1NC(=O)c1cccnc1N2C1CC1 | - | PERE98287RT Recombinant | - | 0.01 µM |
| Nc1cccc(CN2C(=O)N(Cc3cccc(N)c3)[C@H](Cc3ccccc3)[C@H](O)[C@@H](O)[C@H]2Cc2ccccc2)c1 | - | RF | MT-2 | <0.15 µM |
| O=C1N(Cc2cccc(Br)c2)[C@H]2[C@H](CS(=O)(=O)[C@H]2CCCCCO)N1Cc1cccc(Br)c1 | - | RF | MT-2 | <80 µM |
| Nc1ccn([C@H]2CC[C@@H](CO)O2)c(=O)n1 | - | IIIB | MT-4 | 2.6 µM |
| Cc1ccc(S(=O)(=O)/C=C/n2c(=O)c(C)cn(C3CC(N=[N+]=[N-])C(CO)O3)c2=O)cc1 | - | NL4-3 | - | 0.011 µM |
| O=C(/C=C(\O)c1ncn[nH]1)c1ccc(Cc2ccc(F)cc2)o1 | - | - | PBMC | 0.14 µM |
| COc1cccc(CN2C(=O)N(Cc3cccc(OC)c3)N(Cc3ccccc3)C[C@@H](O)[C@H]2Cc2ccccc2)c1 | - | - | MT-4 | 0.93 µM |
| CC(C)=CCN1c2cc(Cl)cc3[nH]c(=S)n(c23)C[C@@H]1C | RT-M41L T215Y L100I | - | MT-4 | <0.2 µM |
| O=C1N(Cc2ccccc2)[C@H](Cc2ccc3c(c2)OCO3)[C@H](O)[C@@H](O)[C@@H](Cc2ccc3c(c2)OCO3)N1Cc1ccccc1 | - | RF | MT-2 | <0.504 µM |
| CC(C)Nc1cccnc1N1CCN(C(=O)c2cc3ccccc3[nH]2)CC1 | - | LAV | MT-2 | 0.07 µM |
| Cc1c(O)cccc1C(=O)N[C@@H](Cc1ccccc1)[C@H](O)C(=O)N1CO[C@H](C)[C@H]1C(=O)NC(C)(C)C | - | IIIB | MT-4 | 1.4 µM |
| CC(=O)c1cccc(COC(=O)CCCC[C@@H]2SC[C@H]3[C@@H]2N(Cc2cccc(C(C)=O)c2)C(=O)N3Cc2cccc(C(C)=O)c2)c1 | - | RF | MT-2 | <12.5 µM |
| Nc1ncnc2c1ncn2[C@H]1O[C@@H](CO)C[C@H]1F | - | - | PBM | >100 µM |
| CCCCCCCCCCCCCCCCOCCCOP(=O)(O)COCCn1cnc2c(N)ncnc21 | - | - | - | 0.0008 µM |
| Cc1c(O)cccc1C(=O)N[C@@H](Cc1ccccc1)[C@H](O)C(=O)N1CSC(C)(C)[C@H]1C(=O)NC(C)(C)C | - | IIIB | MT-4 | 0.15 µM |
| O=C1N(Cc2ccccc2)[C@H](Cc2ccccc2)[C@H](O)CN(Cc2ccccc2)N1Cc1ccccc1 | - | - | MT-4 | 2.86 µM |
| O=C(CCCC[C@@H]1SC[C@H]2[C@@H]1N(Cc1cccc(Br)c1)C(=O)N2Cc1cccc(Br)c1)OCc1cccc(Br)c1 | - | RF | MT-2 | <45 µM |
| Nc1ccn([C@H]2CC[C@@H](CO)O2)c(=O)n1 | - | - | CEM | 1.5 µM |
| Cc1cn([C@H]2C[C@H](N=[N+]=[N-])[C@@H](CO)O2)c(=O)[nH]c1=O | - | WOPRO1838 Recombinant | - | 0.004 µM |
| O=C1N(Cc2ccc(CO)cc2)[C@H](Cc2ccccc2)[C@H](O)CN(Cc2ccccc2)N1Cc1ccc(CO)cc1 | - | - | MT-4 | 0.09 µM |
| O=C(Oc1cc(O)c2c(c1)O[C@H](c1ccc(O)c(O)c1)[C@@H](O)C2)c1cc(O)c(O)c(O)c1 | - | - | C8166 | 10 µg/mL |
| O=C(N[C@H]1c2ccccc2C[C@H]1O)[C@H](OCc1ccccc1)[C@H](O)[C@@H](O)[C@@H](OCc1ccccc1)C(=O)N[C@H]1c2ccccc2C[C@H]1O | - | - | - | 0.092 µM |
| Cc1cn([C@H]2C[C@H](N=[N+]=[N-])[C@@H](CO)O2)c(=O)[nH]c1=O | RT-D67N K70R T215Y | HXB2D (RT D67N K70R T215Y) | MT-2 | 0.0044 µM |
| COC(=O)[C@@]12CC(OC)C3(Cl)C(C)(C=C4C5=C[C@H](O)[C@@H]6O[C@]6(CC=C(C)C)[C@@H]5OO[C@]43C13OC(=O)c1c(O)cc(C)cc1O3)C2 | - | - | C8166 | 6.9 µM |
| O=C1N(Cc2ccccc2)[C@@H]2[C@H](CCCCCO)SC[C@@H]2N1Cc1ccccc1 | - | RF | MT-2 | <46 µM |
| Cc1cn([C@H]2C[C@H](N=[N+]=[N-])[C@@H](CO)O2)c(=O)[nH]c1=O | - | - | PBM | 0.004 µM |
| CNc1cccc(CN2C(=O)N(Cc3cccc(N)c3)[C@H](Cc3ccc4c(c3)OCCO4)[C@H](O)[C@@H](O)[C@H]2Cc2ccc3c(c2)OCCO3)c1 | - | RF | MT-2 | <0.027 µM |
| Cc1cn(C2CC(N=[N+]=[N-])C(CO)O2)c(=O)n([N+](=O)[O-])c1=O | - | NL4-3 | - | 0.032 µM |
| CN1CCOc2ccc(C[C@@H]3[C@H](O)[C@@H](O)[C@@H](Cc4ccc5c(c4)N(C)CCO5)N(Cc4ccccc4)C(=O)N3Cc3ccccc3)cc21 | - | RF | MT-2 | <0.218 µM |
| C[C@H](Cn1cnc2c(N)ncnc21)OCP(=O)(O)O | - | NL4-3 | MT-4 | 5.2–7.4 µM |
| Cc1c(O)cccc1C(=O)N[C@@H](Cc1ccccc1)[C@H](O)C(=O)N1CCC[C@H]1C(=O)NC(C)(C)C | - | IIIB | MT-4 | 1.97 µM |
| C[C@@H]1O[C@@H](Oc2c(-c3cc(O)c(O)c(O)c3)oc3cc(O)cc(O)c3c2=O)[C@H](O)[C@H](O)[C@H]1O | - | - | C8166 | 100 µg/mL |
| O=c1ccn([C@@H]2O[C@H](CO)C[C@@H]2F)c(=O)[nH]1 | - | - | PBM | 155 µM |
| Cc1c(Sc2ccccc2)n(COC(CF)COCc2ccccc2)c(=O)[nH]c1=O | - | - | CEM | 0.05–100 µM |
| O=c1[nH]c(=O)n([C@@H]2O[C@@H](CO)C[C@H]2F)cc1Cl | - | - | PBM | >100 µM |
| Cc1cn(COC(CO)CN=[N+]=[N-])c(=O)[nH]c1=O | - | - | CEM | 0.05–100 µM |
| CC(=O)SCCOP(=O)(OCCSC(C)=O)OC[C@@H]1CC[C@H](n2cnc3c(N)ncnc32)O1 | - | - | PBMC | 0.00023 µM |